Results of unrelated studies side by side (data: NIAID ChemDB).

All rows: growth or infection tests; species: Mycobacterium tuberculosis

Lines come from different laboratories, so protocols vary.

structure	dose	strain	read by	measure	value
COc1c2c(cc3c1c(=O)c1ccccc1n3C)OCO2	-	H37Rv	BACTEC	MIC bound	>12.5 µg/mL
COC(=O)C1=C(C)N(c2ccccc2Cl)C(C)=C(C(=O)OC)C1c1ccc(-c2ccc(F)c(Cl)c2)o1	6.25 µg/mL	H37Rv	BACTEC / radiometric	inhibition	62%
CNC(C)C1CC[C@@H](N)[C@@H](O[C@H]2[C@H](O)[C@@H](OC3OC[C@](C)(O)[C@H](NC)[C@H]3O)[C@H](N)C[C@@H]2N)O1	-	MC2 6230	resazurin	MIC	4 µM
O=C1Nc2ccccc2[C@]12N1CSC[C@H]1[C@H](c1ccc([N+](=O)[O-])cc1)[C@]21Cc2ccccc2C1=O	-	H37Rv	agar	MIC99	12.9 µM
C[C@]1(COc2ccc(N3CCC(Oc4ccc(OC(F)(F)F)cc4)CC3)cc2)Cn2cc([N+](=O)[O-])nc2O1	-	ATCC 35812 (Kurono)	-	MIC	0.012 µg/mL
CCNCC(=O)O[C@]1(CC)C(=O)OCc2c1cc1n(c2=O)Cc2cc3ccccc3nc2-1.Cl	6.25 µg/mL	H37Rv	resazurin	inhibition	-6%
O=C1Nc2ccc(Cl)cc2[C@]12N1CSC[C@H]1[C@H](c1ccc(Cl)cc1)[C@]21Cc2ccccc2C1=O	-	H37Rv	agar	MIC99	24.6 µM
COc1ccc2c(Cc3ccccc3)c3[n+](cc2c1OC)CCc1cc2c(cc1-3)OCO2	-	H37Rv	broth dilution / turbidity	MIC	16 µg/mL
COc1cc([C@@](O)(CCN(C)C)[C@H](c2cc(-c3ccc(Cl)cc3)cnc2OC)c2cccc(OC)c2F)cc(OC)n1	-	H37Rv	resazurin	MIC90	>10 µM
C/C(=N\NC(=O)c1ccncc1)c1cccc(Br)c1	-	H37Rv	-	MIC	>20 µg/mL
CCCCN(C)C(=O)COc1cc2c(O)c3c(O)c(C)c4c(c13)C(=O)[C@@](C)(O/C=C/[C@H](OC)[C@@H](C)[C@@H](OC(C)=O)[C@H](C)[C@H](O)[C@H](C)[C@@H](O)[C@@H](C)/C=C/C=C(/C)C(=O)N2)O4	-	H37Rv	-	MIC	0.37 µg/mL
CCCCSc1nc(C(N)=O)cnc1CCCC	-	H37Rv	-	MIC	>12.5 µg/mL
O=c1[nH]nc(Cc2ccccc2)n1/N=C/c1c(O)ccc2ccccc12	12.5 µg/mL	H37Rv	BACTEC	inhibition	13%
COc1cc([C@](O)(CCN(C)C)[C@@H](c2cc(-c3cccnc3)cnc2OC)c2cccc(OC)c2F)cc(OC)n1	-	H37Rv	resazurin	MIC90	17.11 µM
CCN1C(=O)C2(CCC(=O)CC2)c2ccccc21	-	H37Rv	-	MIC	0.05 µg/mL
CCN(C(=O)COc1cc2c(O)c3c(O)c(C)c4c(c13)C(=O)[C@@](C)(O/C=C/[C@H](OC)[C@@H](C)[C@@H](OC(C)=O)[C@H](C)[C@H](O)[C@H](C)[C@@H](O)[C@@H](C)/C=C/C=C(/C)C(=O)N2)O4)N1CCCCC1	-	H37Rv	-	MIC	0.045 µg/mL
COc1cc(C(O)(CCN(C)C)C(c2cc(-c3ccccc3Cl)cnc2OC)c2cccc(OC)c2F)cc(OC)n1	-	H37Rv	resazurin	MIC90	9.8 µM
Cc1ccccc1[C@H]1[C@@H]2CSCN2[C@@]2(C(=O)Nc3ccc(Cl)cc32)[C@@]12Cc1ccccc1C2=O	-	H37Rv	agar	MIC99	25.7 µM
O=[N+]([O-])c1cn2c(n1)OC[C@@H](OCc1ccc(OC(F)(F)F)cc1)C2	-	Drug-susceptible	-	MIC	0.06 µg/mL
CC(C)(C)OC(=O)N1CCC2(CC1)CC(=O)c1cc(C(=O)/C=C/c3ccccc3Cl)c(O)cc1O2	-	H37Rv	agar	MIC	12.5 µg/mL
CC1(C)C(=NNC(=O)C[N+](C)(C)C)C(C)(C)C1=NNC(=O)C[N+](C)(C)C.[Cl-]	-	H37Rv	BACTEC	MIC bound	>12.5 µg/mL
O=c1cc2oc3cc(O)c(O)cc3c(-c3ccccc3)c-2cc1O	-	H37Rv	broth dilution	MIC90	200 µg/mL
CCSc1nc(C(N)=S)cnc1C(C)(C)C	12.5 µg/mL	H37Rv	-	inhibition	<90%
CN1C(=O)C(CCC(=O)O)(CCC(=O)O)c2ccccc21	-	H37Rv	-	MIC	0.1 µg/mL
CC(C)C1Nc2cc(C(C)(C)C)cc(C(C)(C)C)c2O1	-	My 331/88	-	MIC	500 µM
O=C1Nc2ccc(Cl)cc2[C@]12N1CSC[C@H]1[C@H](c1ccc(Br)cc1)[C@]21Cc2ccccc2C1=O	-	H37Rv	agar	MIC99	11.3 µM
COC(=O)c1cc(-c2ccc([N+](=O)[O-])cc2)c2c(=O)n(-c3ccccc3)[nH]c2n1	-	H37Rv	BACTEC	MIC bound	>12.5 µg/mL
CO[C@H]1/C=C/O[C@@]2(C)Oc3c(C)c(O)c4c(O)c(cc(OCC(=O)Nc5ccc(Cl)cc5)c4c3C2=O)NC(=O)/C(C)=C\C=C\[C@H](C)[C@H](O)[C@@H](C)[C@@H](O)[C@@H](C)[C@H](OC(C)=O)[C@@H]1C	-	H37Rv	-	MIC	0.15 µg/mL
CCCCSc1nc(C(N)=S)cnc1CC(C)C	12.5 µg/mL	H37Rv	-	inhibition	<90%
COC(=O)c1ccc(OC(=O)/C=C/c2ccc(O)c(OC)c2)c(O)c1	6.25 µg/mL	ATCC 27294	resazurin	inhibition	28%
O=C1Nc2ccc(Cl)cc2[C@]12N1CSC[C@H]1[C@H](c1ccccc1Cl)[C@]21Cc2ccccc2C1=O	-	H37Rv	agar	MIC99	12.3 µM
CC(C)(C)c1cc(C(C)(C)C)c2oc(Cc3ccc(O)cc3)nc2c1	-	My 331/88	-	MIC	125 µM
CN1C(=O)C2(CCC(=N)C(C#N)C2)c2ccccc21	-	H37Rv	-	MIC	0.1 µg/mL
COc1c(N2C[C@@H]3CCCN[C@@H]3C2)c(F)cc2c(=O)c(C(=O)O)cn(C3CC3)c12	-	10 strains	-	MIC50	0.06 µg/mL
O=C1Nc2ccc(Cl)cc2[C@]12N1CSC[C@H]1[C@H](c1cccc(Cl)c1Cl)[C@]21Cc2ccccc2C1=O	-	H37Rv	agar	MIC99	5.8 µM
S=c1cc(S)sc2c1c(=S)sc1nc3ccccn3c(=S)c12	12.5 µg/mL	H37Rv	BACTEC	inhibition	31%
CO[C@H]1/C=C/O[C@@]2(C)Oc3c(C)c(O)c4c(O)c(cc(OCC(=O)NC(C)O)c4c3C2=O)NC(=O)/C(C)=C\C=C\[C@H](C)[C@H](O)[C@@H](C)[C@@H](O)[C@@H](C)[C@H](OC(C)=O)[C@@H]1C	-	H37Rv	-	MIC	0.09 µg/mL
COc1cc(OC)c(NC(=O)NNC(=O)C(=O)NC2CC2)cc1Cl	12.5 µg/mL	H37Rv	BACTEC	inhibition	-28%
O=C(/C=C/c1ccc(F)cc1)c1cc2c(cc1O)OC1(CCCCC1)CC2=O	-	H37Rv	agar	MIC	12.5 µg/mL
CCOC(=O)C1=C(C)N(c2ccc(F)cc2)C(C)=C(C(=O)OCC)C1c1ccc(-c2ccc(F)c(Cl)c2)o1	6.25 µg/mL	H37Rv	BACTEC / radiometric	inhibition	25%
C[N+]1([O-])CC[N+](C)([O-])CC1	-	H37Rv	BACTEC	MIC bound	>12.5 µg/mL
COc1cc([C@](O)(CCN(C)C)[C@@H](c2cc(-c3ccc(Cl)cc3)cnc2OC)c2cccc(OC)c2F)cc(OC)n1	-	H37Rv	resazurin	MIC90	1.45 µM
Cc1ccc([C@H]2[C@@H]3CSCN3[C@@]3(C(=O)Nc4ccc([N+](=O)[O-])cc43)[C@@]23Cc2ccccc2C3=O)cc1	-	H37Rv	agar	MIC99	25.1 µM
COc1ccc(/C=C/C(=O)c2cc3c(cc2O)OC2(CCCCC2)CC3=O)cc1	-	H37Rv	agar	MIC	>25 µg/mL
CCC1CN(c2c(F)cc3c(=O)c(C(=O)O)cn(C4CC4)c3c2OC)CCN1	-	TN1625 (A90V)	-	MIC	0.7 µg/mL
C/C(=N\NC(=O)c1ccncc1)c1cccc(C(F)(F)F)c1	-	16PI	-	MIC	>20 µg/mL
COc1c(N2CC[C@@H](C(C)(C)N)C2)c(F)cc2c(=O)c3c(=O)[nH]sc3n(C3CC3)c12	-	Beijing strain isolate 13	-	MIC	0.06 µg/mL
CCCc1ncc(C(N)=O)nc1Sc1ccccc1	12.5 µg/mL	H37Rv	-	inhibition	<90%
CO/C(=N\N=C\c1ccc(F)cc1)c1ccncc1	-	H37Rv	-	MIC	>20 µg/mL
CC(C)(C)c1ncc(C(N)=S)nc1Sc1ccccc1	-	H37Rv	-	MIC	>12.5 µg/mL
O=C1C=CC(=NN=C(c2ccccc2)c2ccccc2)C=C1	-	H37Rv	BACTEC	MIC bound	>12.5 µg/mL
CCOC(=O)C1=C(C)N(c2ccc([N+](=O)[O-])cc2)C(C)=C(C(=O)OCC)C1c1ccc(-c2ccc(F)c(Cl)c2)o1	6.25 µg/mL	H37Rv	BACTEC / radiometric	inhibition	59%
CC(=O)C(N=Nc1cccc2c1C(=O)c1ccccc1C2=O)C(=O)Nc1ccc(C)cc1C	12.5 µg/mL	H37Rv	BACTEC	inhibition	-4%
CCOC(=O)C1=C(C)N(c2ccccc2[N+](=O)[O-])C(C)=C(C(=O)OCC)C1c1ccc(-c2ccc(F)c(Cl)c2)o1	6.25 µg/mL	H37Rv	BACTEC / radiometric	inhibition	22%
COc1cccc(Nc2nc(NNC(=O)c3ccncc3)nc(Nc3ccccn3)n2)c1	0.689 µM	H37Rv	BACTEC / radiometric	inhibition	83%
COc1ccc(OC)c(/C=C/C(=O)c2cc3c(cc2O)OC2(CCN(C(=O)OC(C)(C)C)CC2)CC3=O)c1	-	H37Rv	agar	MIC	>25 µg/mL
CC1=CCC[C@H]2[C@](C)(Cc3cc(O)ccc3O)[C@@H](C)CC[C@]12C	12.5 µg/mL	H37Rv	BACTEC	inhibition	25%
C/C(=N\NC(=O)c1ccncc1)c1ccc(Cl)c(Cl)c1	-	6 PI	-	MIC	>20 µg/mL
COc1ccc2c(c1O)C13CCN(C)C(C2)C1CC(C)C(=O)C3	12.5 µg/mL	H37Rv	BACTEC	inhibition	2%
CCC1CN(c2cc3c(cc2F)c(=O)c(C(=O)O)cn3C2CC2)CCN1	-	TN3033 (D94N)	-	MIC	5 µg/mL
CCOC(=O)c1cnc2c(ccc3[nH]cccc32)c1=O	12.5 µg/mL	H37Rv	BACTEC	inhibition	6%
CC1(C)S[C@@H]2[C@H](NC(=O)[C@H](N)c3ccccc3)C(=O)N2[C@H]1C(=O)O	-	DGN	-	MIC	>92 µM
CCCc1ncc(C(N)=S)nc1SCC	12.5 µg/mL	H37Rv	-	inhibition	<90%
O=C(Nc1ccc(-c2cccs2)oc1=O)c1cnccn1	6.25 µg/mL	H37Rv	BACTEC	inhibition	35%
O=C(O)c1ccc(CO)cc1	6.25 µg/mL	ATCC 27294	resazurin	inhibition	22%
O=C1OCC/C1=N\O	-	H37Rv	BACTEC	MIC bound	>12.5 µg/mL
Cc1cccc(-c2nn(-c3ccccc3)cc2/C=C/c2nc3sccn3c(=O)c2-c2ccc(C#N)cc2)c1	-	H37Rv	colony count	MIC	1.9 µg/mL
CC(C)CC(NC(=O)c1nc2c(C(C)(C)C)cc(C(C)(C)C)cc2o1)C(=O)O	-	My 331/88	-	MIC	250 µM
C=CCc1c2[n+](cc3c(OC)c(OC)ccc13)CCc1cc3c(cc1-2)OCO3	-	H37Rv	broth dilution / turbidity	MIC	>16 µg/mL
COC(=O)Nc1nc2ccc(-n3c(C)nc4ccccc4c3=O)cc2[nH]1	6.25 µg/mL	H37Rv	BACTEC	inhibition	28%
COC(=O)C1=C(C)N(c2ccccc2[N+](=O)[O-])C(C)=C(C(=O)OC)C1c1ccc(-c2ccc(F)c(Cl)c2)o1	6.25 µg/mL	H37Rv	BACTEC / radiometric	inhibition	27%
O=C(NNc1nc(Nc2ccc(O)cc2)nc(Nc2ccccn2)n1)c1ccncc1	0.1277 µM	H37Rv	BACTEC / radiometric	inhibition	77%
COc1ccc(/C=C/C(=O)Oc2ccc(CCO)c(O)c2)cc1	6.25 µg/mL	ATCC 27294	resazurin	inhibition	49%
Cc1ccc2nc(C(O)C(O)C(O)CO)[nH]c2c1	-	H37Rv	BACTEC	MIC bound	>6.25 µg/mL
COc1ccc2c(Cc3ccc(Cl)cc3Cl)c3[n+](cc2c1OC)CCc1cc2c(cc1-3)OCO2	-	H37Rv	broth dilution / turbidity	MIC	8 µg/mL
C/C(=N/N=C(N)N)c1ccc(N2CCN(c3ccc(/C(C)=N/N=C(N)N)cc3)CC2)cc1	-	H37Rv	BACTEC	MIC bound	>12.5 µg/mL
CC(C)(C)OC(=O)N1CCC2(CC1)CC(=O)c1cc(C(=O)/C=C/c3ccccc3)c(O)cc1O2	-	H37Rv	agar	MIC	>25 µg/mL
O=C(NNc1nc(Nc2ccccn2)nc(Nc2ccccc2O)n1)c1ccncc1	0.1229 µM	H37Rv	BACTEC / radiometric	inhibition	71%
O=C1NCCNC1=O	-	H37Rv	BACTEC	MIC bound	>12.5 µg/mL
COc1ccc2c(c1OC)C(CC(C)=O)N1CCc3cc4c(cc3C1=C2)OCO4	-	H37Rv	broth dilution / turbidity	MIC	16 µg/mL
O=C(NNc1nc(Nc2ccccn2)nc(Nc2ccccc2[N+](=O)[O-])n1)c1ccncc1	0.1214 µM	H37Rv	BACTEC / radiometric	inhibition	67%

Blank or dashed fields: not listed here. Inhibition is in % at the dose shown (toxicity tests: loss of growth or viability). MIC bound comes from a single tested concentration. MIC50, MIC90 and the like: level of inhibition, or share of isolates inhibited.